Here are results for 1 sequence from article PMC10112228.

For at least one entry, the source does not settle the construct or the ends of the probe. At least one verdict was read from the data and is not stated in words by the source.

In the series the target is His-CcpA (nonphosphorylated) (Streptococcus pneumoniae D39) (UniProt A0A0H2ZQ65). Put plainly: competition with a labelled probe. Conditions: 100x excess unlabeled Pcps2A as specificity competitor; recombinant protein; residues 1-336; protein details: His-tag (pET14b); label: 32P end-label; probe letters rebuilt from the primers and the genome.

As to “CTTTCTGTGAACGTGATTTTTTAAAACGTCTACTCATGATTAACACCTATACATTGAACATCTTACGATTATATCACTTTTTTACGGTAATGTCTACACCTTTTTTCACTATCTGCATCTTTAAGTATCTTAGTAGACTTCCCGCGAACCAAAAATATAGTAAAATGAAATAAGAACATGACAAATTGATCAGGACAGTCAAATCGTTTTCTAACAATATTTTAGAAGCAGATGTGTACTATTCTAGTTTCAATATAATATAGTACACAATGTGGTATAATCTTTTT (double strand) [Pcps2A (-250/+35)]”, the binding result is reported as “binds”.
